PubChem BioAssay AID624099, ICCB-Longwood, 2012

- Purpose: 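Knock-downs relieving repression by E2 of an HPV18 LCR luciferase reporter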 (primary screen)
- Cells: human C33A cervical carcinoma cells (HPV-negative) stably expressing BPV1 E2 and an HPV18 LCR luciferase reporter
- Reagents: siRNA pool against human genes, 40 nM
- Timing: 72 h
- Detection: 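HPV18 LCR reporter light per well, converted to plate-wise z-scores that exclude control wells, and averaged over triplicate plates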
- Scale: mean z-score and z-score: higher = stronger reporter signal, weaker E2 silencing
- Active means: 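Mean z ≥ 2 together with z ≥ 2 in two or more of the three replicates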
Shown is one part, drawn at random, of about 21,000 deposited reagents. In the full data, 497 (2.4%) are marked active. 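Higher z means weaker E2 silencing; only reporter increases were scored, and knock-downs that hurt cell survival may mask genuine repressor factors.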 The numbers tell different reagents against one gene apart.

| mean z-score | z-score, replicate A | z-score, replicate B | z-score, replicate C | outcome | target | reagent |
| --- | --- | --- | --- | --- | --- | --- |
| 0.23 | 0.36 | 0.01 | 0.34 | inactive | IGSF10 (GeneID 285313) | 1 |
| 0.63 | 0.75 | 0.58 | 0.58 | inactive | ATN1 (GeneID 1822) | 1 |
| -1.38 | -1.33 | -1.48 | -1.33 | inactive | NGLY1 (GeneID 55768) | 1 |
| -0.4 | -0.39 | -0.53 | -0.29 | inactive | SCAMP1 (GeneID 9522) | 1 |
| -1.23 | -0.89 | -1.53 | -1.26 | inactive | FLNB (GeneID 2317) | 1 |
| 1.44 | 1.05 | 1.68 | 1.6 | inactive | TRRAP (GeneID 8295) | 1 |
| -0.16 | -0.01 | -0.27 | -0.21 | inactive | POMGNT1 (GeneID 55624) | 1 |
| 1.13 | 1.17 | 1.04 | 1.17 | inactive | DHRS3 (GeneID 9249) | 1 |
| -1.08 | -0.94 | -1.33 | -0.99 | inactive | RNASE10 (GeneID 338879) | 1 |
| -1.39 | -1.45 | -1.16 | -1.57 | inactive | FAM110B (GeneID 90362) | 1 |
| 0.48 | 0.5 | 0.38 | 0.55 | inactive | TXN2 (GeneID 25828) | 1 |
| -1.16 | -0.95 | -1.3 | -1.23 | inactive | SRFBP1 (GeneID 153443) | 1 |
| 0.16 | -0.42 | 0.06 | 0.84 | inactive | ENOPH1 (GeneID 58478) | 1 |
| -0.68 | -0.95 | -0.73 | -0.38 | inactive | RRAS2 (GeneID 22800) | 1 |
| 0.41 | 0.38 | 0.65 | 0.19 | inactive | OR6C4 (GeneID 341418) | 1 |
| -0.16 | 0.36 | -0.42 | -0.41 | inactive | MYO1H (GeneID 283446) | 1 |
| 0.18 | 0.07 | 0.19 | 0.28 | inactive | CDH11 (GeneID 1009) | 1 |
| 0.07 | -0.37 | 0.35 | 0.23 | inactive | LRRK2 (GeneID 120892) | 1 |
| -0.38 | -0.22 | -0.21 | -0.72 | inactive | ANKRD20A18P (GeneID 391269) | 1 |
| 1.49 | 1.76 | 1.16 | 1.56 | inactive | YPEL2 (GeneID 388403) | 1 |
| 0.42 | 0.41 | 0.69 | 0.16 | inactive | YWHAH (GeneID 7533) | 1 |
| -0.88 | -1.28 | -1.02 | -0.34 | inactive | SLC9A9 (GeneID 285195) | 1 |
| -0.29 | -0.2 | -0.45 | -0.21 | inactive | WWP1 (GeneID 11059) | 1 |
| -0.42 | -0.53 | -0.5 | -0.23 | inactive | LRCH2 (GeneID 57631) | 1 |
| -1.8 | -2.01 | -1.73 | -1.66 | inactive | HDGF (GeneID 3068) | 1 |
| 0.46 | 0.67 | 0.51 | 0.19 | inactive | GFPT2 (GeneID 9945) | 1 |
| -0.94 | -0.84 | -0.94 | -1.04 | inactive | FPGS (GeneID 2356) | 1 |
| -1.03 | -1.04 | -0.94 | -1.12 | inactive | IL24 (GeneID 11009) | 1 |
| 0.03 | 0.06 | 0.02 | 0 | inactive | CFAP144P1 (GeneID 340286) | 1 |
| 0.05 | 0.06 | 0.32 | -0.23 | inactive | CFAP144P1 (GeneID 340286) | 2 |
| -0.5 | 0.03 | -0.89 | -0.65 | inactive | VTA1 (GeneID 51534) | 1 |
| -0.68 | -0.88 | -0.79 | -0.36 | inactive | ARHGEF39 (GeneID 84904) | 1 |
| -0.6 | -0.63 | -0.59 | -0.57 | inactive | MTG2 (GeneID 26164) | 1 |
| -0.62 | -0.75 | -0.57 | -0.55 | inactive | LOC389276 (retired record) (GeneID 389276) | 1 |
| 0.18 | 0.44 | -0.06 | 0.17 | inactive | DNAJC15 (GeneID 29103) | 1 |
| 0.46 | 0.29 | 0.62 | 0.48 | inactive | LOC339281 (retired record) (GeneID 339281) | 1 |
| 0.14 | 0.29 | -0.01 | 0.14 | inactive | NBPF7P (GeneID 343505) | 1 |
| -0.99 | -0.89 | -1.13 | -0.96 | inactive | LOC388421 (retired record) (GeneID 388421) | 1 |
| 0.5 | 0 | 0.61 | 0.88 | inactive | GEMIN8 (GeneID 54960) | 1 |
| 0.11 | -0.07 | 0.13 | 0.26 | inactive | CFAP61 (GeneID 26074) | 1 |
| 0.82 | 0.55 | 0.63 | 1.3 | inactive | TRMT2A (GeneID 27037) | 1 |
| -0.34 | -0.16 | -0.47 | -0.4 | inactive | TRIM16 (GeneID 10626) | 1 |
| -0.62 | -0.41 | -0.41 | -1.05 | inactive | S1PR1 (GeneID 1901) | 1 |
| -1.67 | -1.52 | -1.91 | -1.58 | inactive | ANGPT4 (GeneID 51378) | 1 |
| -0.81 | -0.67 | -1.01 | -0.73 | inactive | PHYKPL (GeneID 85007) | 1 |
| 0.46 | -0.28 | 0.6 | 1.06 | inactive | CACUL1 (GeneID 143384) | 1 |
| 1.24 | 1.18 | 1.56 | 1 | inactive | CFAP299 (GeneID 255119) | 1 |
| 0.39 | 0.55 | 0.2 | 0.4 | inactive | LOC390550 (retired record) (GeneID 390550) | 1 |
| 0.15 | 0.11 | 0.16 | 0.19 | inactive | OR5M8 (GeneID 219484) | 1 |
| -0.46 | -0.62 | -0.25 | -0.49 | inactive | CSGALNACT2P1 (GeneID 286453) | 1 |
| 1.03 | 0.83 | 1.27 | 0.99 | inactive | FZD1 (GeneID 8321) | 1 |
| -0.09 | -0.47 | 0.35 | -0.14 | inactive | BCS1L (GeneID 617) | 1 |
| -0.73 | -0.75 | -0.43 | -1.02 | inactive | UGT2B7 (GeneID 7364) | 1 |
| -1.35 | -1.04 | -1.54 | -1.46 | inactive | RPS6KA2 (GeneID 6196) | 1 |
| -0.39 | -0.36 | -0.46 | -0.37 | inactive | JAKMIP1-DT (GeneID 285484) | 1 |
| 0.79 | 1.12 | 0.85 | 0.39 | inactive | HEMGN (GeneID 55363) | 1 |
| -0.04 | -0.25 | -0.09 | 0.23 | inactive | C1orf198 (GeneID 84886) | 1 |
| 1.56 | 0.9 | 2.23 | 1.56 | inactive | LTAP1 (GeneID 25912) | 1 |
| -0.09 | 0.12 | 0.14 | -0.55 | inactive | PLEKHM1 (GeneID 9842) | 1 |
| 0.17 | -0.19 | 0.51 | 0.19 | inactive | PIK3CA (GeneID 5290) | 1 |
| 1.31 | 1.21 | 1.52 | 1.21 | inactive | MEMO1 (GeneID 51072) | 1 |
| -1.34 | -1.14 | -1.47 | -1.4 | inactive | LOC389188 (retired record) (GeneID 389188) | 1 |
| 1.25 | 1.22 | 1.48 | 1.04 | inactive | ANKRD17 (GeneID 26057) | 1 |
| -0.63 | -0.48 | -0.46 | -0.97 | inactive | RNASE7 (GeneID 84659) | 1 |
| -0.59 | -0.79 | -0.11 | -0.87 | inactive | MRPL16 (GeneID 54948) | 1 |
| -0.23 | -0.27 | -0.31 | -0.12 | inactive | FLJ39095 (GeneID 400812) | 1 |
| 1.27 | 1.76 | 1.18 | 0.86 | inactive | GGCX (GeneID 2677) | 1 |
| 0.66 | 0.18 | 0.6 | 1.21 | inactive | ABHD17B (GeneID 51104) | 1 |
| 0.86 | 0.95 | 0.8 | 0.81 | inactive | ANK3 (GeneID 288) | 1 |
| -0.44 | -0.41 | -0.45 | -0.45 | inactive | MAN1A2 (GeneID 10905) | 1 |
| 1.6 | 1.47 | 1.9 | 1.44 | inactive | KRTAP15-1 (GeneID 254950) | 1 |
| 0.57 | 0.36 | 0.71 | 0.65 | inactive | TAFA3 (GeneID 284467) | 1 |
| 1.6 | 1.23 | 1.65 | 1.93 | inactive | SNX11 (GeneID 29916) | 1 |

An excerpt from above, showing only “z-score, replicate B”.
C1orf198 (GeneID 84886) = -0.09
LTAP1 (GeneID 25912) = 2.23
PLEKHM1 (GeneID 9842) = 0.14
PIK3CA (GeneID 5290) = 0.51
MEMO1 (GeneID 51072) = 1.52
LOC389188 (retired record) (GeneID 389188) = -1.47
ANKRD17 (GeneID 26057) = 1.48
RNASE7 (GeneID 84659) = -0.46
